Earlier results as cited in patent US8357692B2, “Methods of treatment of bone degenerative diseases” (Washington University, priority 2010, dated 2013).

System: P. falciparum FCR-3
Details: cytotoxicity/antimalarial activity, cited from earlier work

| Compound | selectivity (Table 2) | selectivity (Table 1) |
| --- | --- | --- |
| CNc1ccccc1C(=O)N[C@H]1C(O)=C[C@@H]2[C@@H](O)CCCN2C1(C)C [compound 39] | >28 | – |
| O=C(C[C@H]1NCCC[C@@H]1O)Cn1cnccc1=O [compound 12] | – | >32 |
| CC1(C)[C@@H](N2CNc3ccccc3C2=O)C(O)=C[C@@H]2[C@@H](O)CCCN21 [compound 38] | >38 | – |
| O=C(C[C@H]1NCCC[C@@H]1O)Cn1ccc2ccccc2c1=O [compound 14] | – | >32 |
| C[C@@H]1CC[C@H]2[C@@H](C)C(=O)O[C@@H]3O[C@@]4(C)CC[C@@H]1[C@]32OO4 [artemisinin] | – | 1000 |

Read-outs that look alike come from different tables or passages of the source.
